## Percent effect of library compounds

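Whole-cell growth test on Mycobacterium tuberculosis, read after 3 days in glucose-containing 7H9 medium; the read-out is not stated. Compounds at 500 µM. Direction is inferred from retests: higher values go with more growth inhibition. Of about 18,000 compounds tested this way, about 1,400 (7.9%) reached 50% or more in at least one test.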

Each number is a percent effect as filed.
The controls that fix the scale are not given in the record; negative values are as filed.
This is part of a subset picked to be rich in strong results.

Compound | effect
O=C(CSCC(F)(F)F)N1CCOc2ccncc21 | 11.77%
CN1CCC(C)(CN)CC1 | -12.46%
COc1cc(OC)c(NC(=O)C2CCCN2)cc1F (centres undefined) | 1.581%
CC(C)N(CCCNC(=O)c1ccoc1)S(C)(=O)=O | 20.22%
N#CC(c1ccc(F)cc1)N1CCNCC1 (centres undefined) | 1.057%
CCCC(C)CS(=O)(=O)NCc1ccncc1 (centres undefined) | 69.45%
NS(=O)(=O)c1ccc(NC(=O)Oc2ccccc2)cc1 | 11.32%
CC(C)n1ccc(CC(=O)N2CCCC2)n1 | 68.3%
FC(F)(F)CNC1COC1 | -8.969%
O=C1CC(O)CCN1 (centres undefined) | 4.991%
c1ccc(NCCNc2ccccn2)cc1 | 72.75%
C[n+]1ccn(C(=O)N2CCCCCC2)c1.[I-] | 22.97%
CC(C)(C)OC(=O)N1CCCC(CN)C1 (centres undefined) | 21.46%
CCCN1CCCC(CNC(=O)c2ccn(CC)n2)C1 (centres undefined) | 2.422%
COc1ccc(CCN)cc1S(N)(=O)=O | 15.92%
COC(=O)c1ccc(CSc2n[nH]c(C)n2)o1 | 63.97%
COCc1ccc(C#N)cc1 | 26.8%
NC(=O)CC1CCN(Cc2cccc(F)c2)CC1 | -4.002%
CNc1cc(CN(C)Cc2ccccc2)ccn1 | 61.14%
CC(C)c1cc(C(=O)N2CCSCC2)nc2ncnn12 | -11.31%
O=C(c1cc(C2CC2)on1)N1CCCN(C2CC2)CC1 | 55.5%
Cc1ncc(Br)cc1N | -8.421%
CN(CCCNS(N)(=O)=O)c1ccccc1F | 33.05%
CO[C@@H]1CCOC[C@H]1NC(=O)CCc1ccccn1 | 7.736%
CN1CCC(CNC(=O)CCc2ccccc2O)C1 (centres undefined) | 49.66%
O=C(Cc1ccccn1)N[C@@H]1COCC[C@H]1O | 5.085%
O=S(=O)(CCO)NCc1ccccc1 | 14.29%
CC(C)Cc1cc(N)sn1 | 21.75%
NC(=O)CC1CCN(C(=O)Cc2ccc(Cl)cc2)CC1 | 51.56%
COc1cc(CCN)cc(OC)c1O | 32.83%
CN(C(=O)c1cccc(F)c1F)S(C)(=O)=O | 12.38%
COc1ccc2c(c1)[C@@H](N)CCO2 | 7.291%
CC1CN(C(=O)[C@@H](N)Cc2ccccc2)CC(C)(C)O1 (some centres undefined) | 9.876%
N#CCCCn1ccccc1=O | -1.968%
CNC(=O)c1ccc(Cl)c(S(=O)(=O)N2CCCCC2)c1 | 53.51%
N[C@@H]1CC[C@@H](NC(=O)c2cc3sccc3[nH]2)C1 | 53.4%
CN(Cc1ccnn1C)C(=O)c1ccc(Cl)cc1 | 41.77%
CC1(CCCO)CCCN1 (centres undefined) | 3.251%
O=S(=O)(CCNc1ccccn1)NCC1CCC1 | 72%
O=c1cc(CO)nc2ccccn12 | -4.48%
CCN(CCO)C[C@@H]1CN(C(=O)C2(C)CC2)C[C@@H]1CO | 0.3106%
CCC1(CO)CCCN(C(=O)c2ccc(COC)s2)C1 (centres undefined) | 62.45%
COCCNC(=O)C1CCN(Cc2ccccc2)CC1 | 11.68%
COc1cccc(OCCN2CCNCC2)c1 | 44.9%
CS(=O)(=O)Cc1ccc(CN)cc1 | 25.52%

Some entries from above, unchanged:

Compound,effect
COc1cc(CCN)cc(OC)c1O,32.83%
CN(C(=O)c1cccc(F)c1F)S(C)(=O)=O,12.38%
CC1CN(C(=O)[C@@H](N)Cc2ccccc2)CC(C)(C)O1 (some centres undefined),9.876%
COCCNC(=O)C1CCN(Cc2ccccc2)CC1,11.68%

Source: ChEMBL document CHEMBL3988442, “University of Dundee, Small-Polar-MMV Screening Library” (2021).